Mutational scan of HIV-1 Vif (LAI) in cells with APOBEC3G

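Pooled viruses with one designed change each in Vif went through two 72 h rounds in SupT1 cells expressing APOBEC3G. Each of three replicates was sequenced after round two and set against the merged round-one pool.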

Scanned stretch, residues 12 to 115 of Vif from HIV-1 LAI (a laboratory-adapted subtype B strain):
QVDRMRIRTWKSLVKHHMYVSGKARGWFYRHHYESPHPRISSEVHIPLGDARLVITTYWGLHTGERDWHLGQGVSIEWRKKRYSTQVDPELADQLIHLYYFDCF

The score is log2 enrichment against the wild-type codon: higher is better tolerated, lower is depleted.
Each entry names the wild-type residue, its position and the residue put in its place.
This list holds changes to leucine only.
The median of three replicates is given.
Input reads are the counts in the merged round-one pool, before selection.
Some changes are missing from the data or left out.
The authors note that some positive scores may be noise, and some enriched variants failed when tested singly.
Replicates agree only moderately (rank correlation about 0.4-0.65); scores from under about 50 input reads tend to be too high.

* Q12L (input reads 21) -> 1.39
* V13L (input reads 431) -> -0.29
* D14L (input reads 892) -> 0.49
* R15L (input reads 471) -> -2.31
* I18L (input reads 2901) -> -1.02
* R19L (input reads 686) -> 0.75
* T20L (input reads 472) -> -2.77
* W21L (input reads 451) -> -1.63
* K22L (input reads 31) -> -0.49
* S23L (input reads 474) -> -0.89
* V25L (input reads 108) -> -4.12
* K26L (input reads 766) -> -1.68
* H27L (input reads 417) -> -3.08
* H28L (input reads 729) -> -0.50
* M29L (input reads 439) -> -2.66
* S32L (input reads 545) -> -0.82
* G33L (input reads 1151) -> -1.84
* A35L (input reads 507) -> -1.23
* R36L (input reads 331) -> -2.91
* F39L (input reads 152) -> -0.55
* Y40L (input reads 447) -> -2.19
* R41L (input reads 172) -> 3.28
* H42L (input reads 22) -> -0.01
* Y44L (input reads 346) -> -2.02
* E45L (input reads 29) -> 0.10
* P47L (input reads 35) -> -2.94
* H48L (input reads 414) -> -2.61
* P49L (input reads 644) -> -2.91
* S52L (input reads 439) -> -1.62
* S53L (input reads 191) -> -1.20
* E54L (input reads 419) -> -4.00
* V55L (input reads 456) -> -3.87
* P58L (input reads 91) -> 1.08
* G60L (input reads 458) -> -3.86
* A62L (input reads 213) -> 2.63
* V65L (input reads 455) -> -3.66
* I66L (input reads 428) -> -1.86
* T67L (input reads 152) -> -0.42
* Y69L (input reads 479) -> 0.56
* W70L (input reads 34) -> 0.71
* G75L (input reads 225) -> -1.73
* E76L (input reads 1768) -> -1.71
* R77L (input reads 450) -> -2.48
* G82L (input reads 33) -> -0.98
* Q83L (input reads 138) -> -0.21
* V85L (input reads 940) -> -2.98
* S86L (input reads 315) -> -1.94
* I87L (input reads 889) -> -3.47
* E88L (input reads 440) -> -3.15
* W89L (input reads 540) -> 0.16
* R90L (input reads 16) -> -1.85
* K92L (input reads 351) -> -4.21
* V98L (input reads 705) -> -2.29
* D99L (input reads 1142) -> -2.39
* P100L (input reads 594) -> -2.11
* A103L (input reads 182) -> -1.39
* D104L (input reads 202) -> -2.68
* I107L (input reads 21) -> 1.05
* H108L (input reads 189) -> -3.35
* Y111L (input reads 74) -> -1.24
* F112L (input reads 19) -> -0.52
* D113L (input reads 322) -> -2.27
* F115L (input reads 246) -> -5.30

The measurements come from Langley et al. 2025, preprint (doi:10.1101/2025.10.20.683452).